The amount applied is not stated for every result.
How the values were obtained:
Format in all cases: cell-based, Saccharomyces cerevisiae
Parameters in all cases: key: 0: SH3-independent; 1: SH3-dependent PPIs; 2: SH3-inhibited PPIs
[1] = tested on: BEM1-2; experiment: DHFR-PCA on solid medium, bait BEM1-2 (Fig. 1B); conditions: bait BEM1-2, label = prey
Excerpt: (§1) Supplement 41467_2021_21873_MOESM8_ESM.xlsx, sheet "Fig1B" | column: medsize; medrep; Ratio; Score

[2] = tested on: BEM1-1; experiment: DHFR-PCA on solid medium, bait BEM1-1 (Fig. 1B); conditions: bait BEM1-1, label = prey
Excerpt: as §1

[3] = tested on: ABP1; experiment: DHFR-PCA on solid medium, bait ABP1 (Fig. 1B); conditions: bait ABP1, label = prey
Excerpt: as §1

| Molecule | Score [1] | Score [2] | Score [3] |
| --- | --- | --- | --- |
| YBL085W (protein, UniProt P38041 1-980, looked up) BEM1-interacting protein 1: MSLEGNTLGKGAKSFPLYIAVNQYSKRMEDELNMKPGDKIKVITDDGEYNDGWYYGRNLRTKEEGLYPAVFTKRIAIEKPENLHKSPTQESGNSGVKYGNLNDSASNIGKVSSHQQENRYTSLKSTMSDIDKALEELRSGSVEQEVSKSPTRVPEVSTPQLQDEQTLIQEKTRNEENTTHDSLFSSTADLNLSSESLKNISKSNISTKSLEPSSESVRQLDLKMAKSWSPEEVTDYFSLVGFDQSTCNKFKEHQVSGKILLELELEHLKELEINSFGIRFQIFKEIRNIKSAIDSSSNKLDADYSTFAFENQAAQLMPAATVNRDEIQQQISSKCNKLSSESSDRKSSSVTTELQRPSSVVVNPNFKLHDPAEQILDMTEVPNLFADKDIFESPGRAPKPPSYPSPVQPPQSPSFNNRYTNNNARFPPQTTYPPKNKNPTVYSNGLIPNSSTSSDNSTGKFKFPAMNGHDSNSRKTTLTSATIPSINTVNTDESLPAISNISSNATSHHPNRNSVVYNNHKRTESGSSFVDLFNRISMLSPVKSSFDEEETKQPSKASRAVFDSARRKSSYGHSRDASLSEMKKHRRNSSILSFFSSKSQSNPTSPTKQTFTIDPAKMTSHSRSQSNSYSHARSQSYSHSRKHSLVTSPLKTSLSPINSKSNIALAHSETPTSSNNKEAVSQPSEGKHKHKHKHKSKHKHKNSSSKDGSSEEKSKKKLFSSTKESFVGSKEFKRSPSELTQKSTKSILPRSNAKKQQTSAFTEGIRSITAKESMQTADCSGWMSKKGTGAMGTWKQRFFTLHGTRLSYFTNTNDEKERGLIDITAHRVLPASDDDRLISLYAASLGKGKYCFKLVPPQPGSKKGLTFTEPRVHYFAVENKSEMKAWLSAIIKATIDIDTSVPVISSYATPTIPLSKAQTLLEEARLQTQLRDAEEEEGRDQFGWDDTQNKRNSNYPIEQDQFETSDYLESSAFEYPGGRL | 1 | 1 |  |
| YBR200W (protein, UniProt P29366 1-551, looked up) Bud emergence protein 1: MLKNFKLSKRDSNGSKGRITSADISTPSHDNGSVIKHIKTVPVRYLSSSSTPVKSQRDSSPKNRHNSKDITSPEKVIKAKYSYQAQTSKELSFMEGEFFYVSGDEKDWYKASNPSTGKEGVVPKTYFEVFDRTKPSSVNGSNSSSRKVTNDSLNMGSLYAIVLYDFKAEKADELTTYVGENLFICAHHNCEWFIAKPIGRLGGPGLVPVGFVSIIDIATGYATGNDVIEDIKSVNLPTVQEWKSNIARYKASNISLGSVEQQQQQSITKPQNKSAKLVDGELLVKASVESFGLEDEKYWFLVCCELSNGKTRQLKRYYQDFYDLQVQLLDAFPAEAGKLRDAGGQWSKRIMPYIPGPVPYVTNSITKKRKEDLNIYVADLVNLPDYISRSEMVHSLFVVLNNGFDREFERDENQNNIKTLQENDTATFATASQTSNFASTNQDNTLTGEDLKLNKKLSDLSLSGSKQAPAQSTSGLKTTKIKFYYKDDIFALMLKGDTTYKELRSKIAPRIDTDNFKLQTKLFDGSGEEIKTDSQVSNIIQAKLKISVHDI | 1 | 0 | 2 |
| YCR030C (protein, UniProt P25623 1-870, looked up) Suppressor of yeast profilin …: MTEQRTKYADSILTTKSPYEATETIRIRLSQVKLLNKDFYLLFKELANLKRNYAQQLRKIIAENEDITKILNAQMIESNVLTPQEMSAFRFNSLGELRNVWDTVIEELKSDLKSSTEYYNTLDQQVVRELKESVENNTSWRESKDLHSKLSKNAASIEHYSKNNENSSHLEEARRQWDQQSPYLFELFETIDYNRLDTLKNCMLRFQTSFSDYLLNTTKECETVMTKFLAFEPQSEIDRFAKDASQYNFQLSSSSKEVVPNNASPASATGARPVSVSNGAANTEREKKSPQKDKRKSAFGNIGHRLASASSSLTHNDLMNNEFSDSTNNSSLKSKKSSHTLRSKVGSIFGRNKTKNKRQQQSSSNSHIQASITETPNNSSTRVSSTATSSIYQKQRRPTYSSSKSNNWTPGEASDTPPLPPHATPKNVDAPVTADTPPAQTFTPSEVPPSTPQQSSPPTAKEPDSSNLPKTVPISISQPPLQPQSKTKPLPVEPASPSISLPTATVDNQPSGQVDSRPLHIRAPALPPSRKQNFIHNRDSQLYDSLPNHGSGATPTSSSLSSIPQERPVSTLSSQITGELRELNPQATGSSTSLVGQSLFQHSSLDTSQFGLNASIAEVLNASFKDGMLQNSQLIGEIALNYLPNSVMNSPLPIGINLRINNGAKFEKVILNQAFIERVAPEEFKVNPSFIDSRTLGAIKYSIKEPIAPIVIHPVWRFESHQASVVLTVKMSPSLPDEISQIVIEDLVVFVNIDGANATSALSKPQGSFSKEKKRITWRFKEPVVLTRNGEGQRLIARFITDGLAHESAKGVITKFTISETDNVALPHSGAGSGITLTCQELDENNPFGGEWLDVNTKRTLTTGNYHGLA | 1 | 1 | 0 |
| YCR002C (protein, UniProt P25342 1-322, looked up) Cell division control protein …: MDPLSSVQPASYVGFDTITNQIEHRLLKKGFQFNIMVVGQSGLGKSTLINTLFASHLIDSATGDDISALPVTKTTEMKISTHTLVEDRVRLNINVIDTPGFGDFIDNSKAWEPIVKYIKEQHSQYLRKELTAQRERFITDTRVHAILYFLQPNGKELSRLDVEALKRLTEIANVIPVIGKSDTLTLDERTEFRELIQNEFEKYNFKIYPYDSEELTDEELELNRSVRSIIPFAVVGSENEIEINGETFRGRKTRWSAINVEDINQCDFVYLREFLIRTHLQDLIETTSYIHYEGFRARQLIALKENANSRSSAHMSSNAIQR | 1 | 0 | 0 |
| YGR281W (protein, UniProt P53049 1-1477, looked up) Oligomycin resistance …: MTITVGDAVSETELENKSQNVVLSPKASASSDISTDVDKDTSSSWDDKSLLPTGEYIVDRNKPQTYLNSDDIEKVTESDIFPQKRLFSFLHSKKIPEVPQTDDERKIYPLFHTNIISNMFFWWVLPILRVGYKRTIQPNDLFKMDPRMSIETLYDDFEKNMIYYFEKTRKKYRKRHPEATEEEVMENAKLPKHTVLRALLFTFKKQYFMSIVFAILANCTSGFNPMITKRLIEFVEEKAIFHSMHVNKGIGYAIGACLMMFVNGLTFNHFFHTSQLTGVQAKSILTKAAMKKMFNASNYARHCFPNGKVTSFVTTDLARIEFALSFQPFLAGFPAILAICIVLLIVNLGPIALVGIGIFFGGFFISLFAFKLILGFRIAANIFTDARVTMMREVLNNIKMIKYYTWEDAYEKNIQDIRTKEISKVRKMQLSRNFLIAMAMSLPSIASLVTFLAMYKVNKGGRQPGNIFASLSLFQVLSLQMFFLPIAIGTGIDMIIGLGRLQSLLEAPEDDPNQMIEMKPSPGFDPKLALKMTHCSFEWEDYELNDAIEEAKGEAKDEGKKNKKKRKDTWGKPSASTNKAKRLDNMLKDRDGPEDLEKTSFRGFKDLNFDIKKGEFIMITGPIGTGKSSLLNAMAGSMRKTDGKVEVNGDLLMCGYPWIQNASVRDNIIFGSPFNKEKYDEVVRVCSLKADLDILPAGDMTEIGERGITLSGGQKARINLARSVYKKKDIYLFDDVLSAVDSRVGKHIMDECLTGMLANKTRILATHQLSLIERASRVIVLGTDGQVDIGTVDELKARNQTLINLLQFSSQNSEKEDEEQEAVVAGELGQLKYESEVKELTELKKKATEMSQTANSGKIVADGHTSSKEERAVNSISLKIYREYIKAAVGKWGFIALPLYAILVVGTTFCSLFSSVWLSYWTENKFKNRPPSFYMGLYSFFVFAAFIFMNGQFTILCAMGIMASKWLNLRAVKRILHTPMSYIDTTPLGRILNRFTKDTDSLDNELTESLRLMTSQFANIVGVCVMCIVYLPWFAIAIPFLLVIFVLIADHYQSSGREIKRLEAVQRSFVYNNLNEVLGGMDTIKAYRSQERFLAKSDFLINKMNEAGYLVVVLQRWVGIFLDMVAIAFALIITLLCVTRAFPISAASVGVLLTYVLQLPGLLNTILRAMTQTENDMNSAERLVTYATELPLEASYRKPEMTPPESWPSMGEIIFENVDFAYRPGLPIVLKNLNLNIKSGEKIGICGRTGAGKSTIMSALYRLNELTAGKILIDNVDISQLGLFDLRRKLAIIPQDPVLFRGTIRKNLDPFNERTDDELWDALVRGGAIAKDDLPEVKLQKPDENGTHGKMHKFHLDQAVEEEGSNFSLGERQLLALTRALVRQSKILILDEATSSVDYETDGKIQTRIVEEFGDCTILCIAHRLKTIVNYDRILVLEKGEVAEFDTPWTLFSQEDSIFRSMCSRSGIVENDFENRS | 1 | 0 |  |
| YKL051W (protein, UniProt P35735 1-353, looked up) Protein SFK1: MIQFKSPGNWLFIVPWIAFIPWYGMLIAMLICWASQGHPIYWFMHSEQFPVYISDIGATNLRPLFISCAGWQGLGYVITVALEFFQRSGYLPFQLKKKDPSISDSTSYAEKLHSGKYLMPPYYTKDERNLIFAAFVLGSIGELALLFSSIFSTALYHRVHIAMVSVFVVFMFLSTCCLIAEYFLMGRHYASVHPLASPHFNPQSSEKSFNQDYNTVDELPWYKWKGHVWNKFTISATLKVIWLTLAVVWAICFGAINDRSKSACFEWLLAFWFGIIFMILSADFYLGGRYRQSRYFNHVESFSGYYKYDKALGLYHSEDVLPSDDNAGVIATETASSNIYNNSSSNESIQVVV | 1 | 1 |  |
| YBR102C (protein, UniProt P38261 1-753, looked up) Exocyst complex component …: MVEFSLKKARNNWKHVKKSASSPAKQKTPPSPAKPKQKTKKNPYSDLKDPATSYTLPTINARERSRVATSMQRRLSIHNTNYAPPTLDYSMPLPDMPNMIVPNDNVDSSHNNSSFTTENESVSSKGPSNSLNLSTADLSLNDSSYNKVPARSAMRNTVNPSGSNDPFNNSTSLRKMLANPHFNAKDFVHDKLGNASAITIDKFTSNLTDLSIQVQEEVKLNINKSYNEIMTVNNDLNVAMLELKRVRANINDLNEVLDQCTKIAEKRLQLQDQIDQERQGNFNNVESHSNSPALLPPLKAGQNGNLMRRDRSSVLILEKFWDTELDQLFKNVEGAQKFINSTKGRHILMNSANWMELNTTTGKPLQMVQIFILNDLVLIADKSRDKQNDFIVSQCYPLKDVTVTQEEFSTKRLLFKFSNSNSSLYECRDADECSRLLDVIRKAKDDLCDIFHVEEENSKRIRESFRYLQSTQQTPGRENNRSPNKNKRRSMGGSITPGRNVTGAMDQYLLQNLTLSMHSRPRSRDMSSTAQRLKFLDEGVEEIDIELARLRFESAVETLLDIESQLEDLSERISDEELMLLNLISLKIEQRREAISSKLSQSILSSNEIVHLKSGTENMIKLGLPEQALDLFLQNRSNFIQDLILQIGSVDNPTNYLTQLAVIRFQTIKKTVEDFQDIFKELGAKISSILVDWCSDEVDNHFKLIDKQLLNDEMLSPGSIKSSRKQIDGLKAVGLDFVYKLDEFIKKNSDKIR | 1 | 1 |  |

From paper PMC7954794, “Protein context shapes the specificity of SH3 domain-mediated interactions in vivo” (Nature Communications, 2021)
